Laboratory results from article PMC5142624, “Reduced Activity of Mutant Calcium-Dependent Protein Kinase 1 Is Compensated in Plasmodium falciparum through the Action of Protein Kinase G” (mBio, 2016).

By UniProt entry, the sequences of proteins in these tests, tags left out. Where a name states a change or a piece, a line headed by the entry shows the natural chain unless it says otherwise.
UniProt Q8I719, whole entry: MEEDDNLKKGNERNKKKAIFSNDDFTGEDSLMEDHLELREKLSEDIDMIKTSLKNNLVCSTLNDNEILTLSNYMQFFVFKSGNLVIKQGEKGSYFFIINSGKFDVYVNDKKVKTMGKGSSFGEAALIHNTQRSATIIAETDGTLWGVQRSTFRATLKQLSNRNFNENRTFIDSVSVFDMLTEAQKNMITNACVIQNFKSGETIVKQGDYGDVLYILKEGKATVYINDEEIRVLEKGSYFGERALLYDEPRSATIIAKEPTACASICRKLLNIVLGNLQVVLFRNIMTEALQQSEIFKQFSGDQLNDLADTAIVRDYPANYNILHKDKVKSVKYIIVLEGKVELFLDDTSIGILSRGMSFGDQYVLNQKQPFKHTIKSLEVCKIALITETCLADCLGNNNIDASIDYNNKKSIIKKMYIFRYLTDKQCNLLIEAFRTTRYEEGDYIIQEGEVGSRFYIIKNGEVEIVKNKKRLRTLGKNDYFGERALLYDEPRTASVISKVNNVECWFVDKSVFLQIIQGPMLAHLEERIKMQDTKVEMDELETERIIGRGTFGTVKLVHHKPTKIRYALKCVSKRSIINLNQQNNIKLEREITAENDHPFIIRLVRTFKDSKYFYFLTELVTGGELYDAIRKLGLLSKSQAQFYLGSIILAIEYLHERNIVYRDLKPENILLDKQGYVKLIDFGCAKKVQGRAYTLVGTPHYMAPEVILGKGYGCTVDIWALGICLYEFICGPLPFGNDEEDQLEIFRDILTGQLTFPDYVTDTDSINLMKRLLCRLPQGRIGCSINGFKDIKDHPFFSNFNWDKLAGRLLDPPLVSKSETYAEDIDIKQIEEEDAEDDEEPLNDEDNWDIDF
UniProt P62344, whole entry: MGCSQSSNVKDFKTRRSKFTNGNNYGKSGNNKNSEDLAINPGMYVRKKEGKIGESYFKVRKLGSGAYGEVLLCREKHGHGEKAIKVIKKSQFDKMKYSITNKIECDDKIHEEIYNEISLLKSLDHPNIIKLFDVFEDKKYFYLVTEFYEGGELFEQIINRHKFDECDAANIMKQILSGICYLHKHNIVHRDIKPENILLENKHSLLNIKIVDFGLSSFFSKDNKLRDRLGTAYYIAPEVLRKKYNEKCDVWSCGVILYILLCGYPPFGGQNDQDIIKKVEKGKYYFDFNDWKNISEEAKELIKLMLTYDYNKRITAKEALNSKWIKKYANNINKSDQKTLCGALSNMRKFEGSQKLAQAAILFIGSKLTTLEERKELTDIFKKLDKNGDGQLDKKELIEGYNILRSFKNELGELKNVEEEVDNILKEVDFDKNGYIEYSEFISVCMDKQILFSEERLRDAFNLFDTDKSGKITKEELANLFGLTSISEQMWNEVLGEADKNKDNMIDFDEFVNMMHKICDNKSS
UniProt P62344, whole entry T145M: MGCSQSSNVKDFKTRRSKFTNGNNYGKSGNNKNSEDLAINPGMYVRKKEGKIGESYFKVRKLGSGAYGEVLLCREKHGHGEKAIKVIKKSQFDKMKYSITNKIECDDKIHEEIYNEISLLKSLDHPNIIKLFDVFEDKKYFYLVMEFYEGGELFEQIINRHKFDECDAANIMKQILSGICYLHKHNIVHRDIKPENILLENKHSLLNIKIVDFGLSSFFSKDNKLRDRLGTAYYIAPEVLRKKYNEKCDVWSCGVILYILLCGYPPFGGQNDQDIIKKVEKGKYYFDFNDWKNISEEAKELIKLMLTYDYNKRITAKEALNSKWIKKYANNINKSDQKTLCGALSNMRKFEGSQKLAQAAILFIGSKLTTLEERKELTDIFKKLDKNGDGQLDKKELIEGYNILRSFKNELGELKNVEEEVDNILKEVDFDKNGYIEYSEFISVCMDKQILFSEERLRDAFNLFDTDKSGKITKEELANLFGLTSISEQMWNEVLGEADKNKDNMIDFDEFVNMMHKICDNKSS

Columns and labels:
Format in all cases: biochemical
[1] = target: recombinant P. falciparum cGMP-dependent protein kinase (PfPKG) (Plasmodium falciparum, UniProt Q8I719); experiment: PfPKG in vitro kinase activity assay (luminescence); conditions: read-out: IC50 (SD) for PfPKG; 2 µM ATP, 20 µM cGMP, 2 h at 30°C
Protocol: Compound efficacy against recombinant P. falciparum cGMP-dependent protein kinase (PfPKG) was determined using a novel nonradioactive and high-throughput assay. This assay evaluates protein kinase activity by measuring changes in […] ATP concentration via luminescence after PfPKG enzyme phosphorylation of a peptide substrate, PKCtide ([…]) (SignalChem, Richmond, BC, Canada). The in vitro kinase assay was set up with 26 µM PKCtide, 30 nM PfPKG, and 20 µM cGMP in a buffered solution containing 20 mM β-glycerol phosphate, 20 mM MgCl2, 25 mM HEPES (pH 7.5) (KOH), 0.1% bovine serum albumin (BSA), and 2 mM DTT ([37]). The reaction was initiated with addition of 2 µM ATP. The reaction mixture was incubated at 30°C and 90-rpm agitation for 2 h. Reaction wells with no PfPKG, no peptide substrate, and no cGMP were included in each assay plate as internal negative controls.

[2] = target: recombinant PfCDPK1 T145M (Plasmodium falciparum, UniProt P62344, T145M); experiment: BKI library screening, in vitro kinase assay (KinaseGlo); conditions: read-out: PfCDPK1Met IC50; methionine gatekeeper mutant T145M; 10 µM ATP, 90 min at 30°C
recombinant PfCDPK1 WT = recombinant PfCDPK1 WT (Plasmodium falciparum, UniProt P62344); experiment: as above; conditions: read-out: PfCDPK1 WT IC50; 10 µM ATP, 90 min at 30°C; two independent experiments in triplicate

CCOc1ccc2cc(-c3nn(CC4CCNCC4)c4ncnc(N)c34)ccc2c1
IC50 [1]: 0.374 µM | IC50 [2]: > 2 µM | IC50 (recombinant PfCDPK1 WT): 0.148 µM

CC(C)(C)n1nc(-c2ccc3ccccc3c2)c2c(N)ncnc21
IC50 [2]: > 2 µM | IC50 (recombinant PfCDPK1 WT): 0.337 µM

CCOc1ccc2cc(-c3nn(CC4CCNCC4)c4ncnc(N)c34)ccc2n1
IC50 [1]: 1.38 µM | IC50 [2]: > 2 µM | IC50 (recombinant PfCDPK1 WT): 0.468 µM
